In US20110190379A1 (priority 2008, published 2011):

Tested on: F. graminearum
Assay: Arabidopsis detached leaf infection bioassay with chemical feeding treatments
Details: Col-0, etr1-1 and ein2-1 with versus without enhanced ethylene; data not shown

SMILES: C=C [ethylene]
- disease severity in Col-0 and ethylene insensitive mutants: enhanced disease severity to a similar extent
